{"source": "PubChem BioAssay AID504761 (Drosophila RNAi Screening Center, 2011)", "aim": "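Fly genes whose silencing reduces dengue virus type 2 infection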 (primary screen)", "system": "D.Mel-2 cells from Drosophila", "knock-down reagent": "long dsRNA against Drosophila genes", "conditions": "infection with dengue virus type 2; dose and infection time not stated", "read-out": "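Per well on two replicate plates, imaging gave the percent of cells positive for viral envelope protein, ranked by infection, and a nuclear count of cells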", "scale": "infection score: higher = more virus-infected cells; cell count: higher = more cells in the well", "rule for the call": "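Low infection ranks in the two replicates (chance level up to 0.065) followed by a retest with a 1.5-fold or larger significant decrease, p below 0.05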", "calls": "active = confirmed: knock-down lowers infection; inactive = not picked or not confirmed", "note": "The screen tested about 22,000 reagents; below is an unselected part of those that have a named target and a result. Of all reagents, 116 (0.52%) were called active. 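Calls depend on retest data that are not deposited; infection was ranked per plate without normalising between plates; the unit of the infection score is not given.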 Raw values vary from plate to plate and are shown uncorrected. Not stated in the record: the amount of reagent, the time to read-out."}
The opening 3 entries, to show the layout:
{"gene": "Spn28Db", "amplicon": "DRSC22033", "infection score, replicate 1": 3.16, "infection score, replicate 2": 2.6, "cell count, replicate 1": 6210, "cell count, replicate 2": 5780, "Call": "inactive"}
{"gene": "CG17024 (retired record)", "amplicon": "DRSC02562", "infection score, replicate 1": 2.2, "infection score, replicate 2": 2.93, "cell count, replicate 1": 6508, "cell count, replicate 2": 6341, "Call": "inactive"}
{"gene": "CG30271", "amplicon": "DRSC04170", "infection score, replicate 1": 6.59, "infection score, replicate 2": 7.4, "cell count, replicate 1": 6696, "cell count, replicate 2": 6795, "Call": "inactive"}

Main list, from the first entry:
{"gene": "Spn28Db", "amplicon": "DRSC22033", "infection score, replicate 1": 3.16, "infection score, replicate 2": 2.6, "cell count, replicate 1": 6210, "cell count, replicate 2": 5780, "Call": "inactive"}
{"gene": "CG17024 (retired record)", "amplicon": "DRSC02562", "infection score, replicate 1": 2.2, "infection score, replicate 2": 2.93, "cell count, replicate 1": 6508, "cell count, replicate 2": 6341, "Call": "inactive"}
{"gene": "CG30271", "amplicon": "DRSC04170", "infection score, replicate 1": 6.59, "infection score, replicate 2": 7.4, "cell count, replicate 1": 6696, "cell count, replicate 2": 6795, "Call": "inactive"}
{"gene": "CG30271", "amplicon": "DRSC30044", "infection score, replicate 1": 14.1, "infection score, replicate 2": 7.36, "cell count, replicate 1": 4909, "cell count, replicate 2": 6481, "Call": "inactive"}
{"gene": "HDAC4", "amplicon": "DRSC19780", "infection score, replicate 1": 7.99, "infection score, replicate 2": 4.07, "cell count, replicate 1": 6672, "cell count, replicate 2": 6628, "Call": "inactive"}
{"gene": "HDAC4", "amplicon": "DRSC25237", "infection score, replicate 1": 1.26, "infection score, replicate 2": 6.24, "cell count, replicate 1": 6529, "cell count, replicate 2": 6536, "Call": "inactive"}
{"gene": "CG31661", "amplicon": "DRSC00296", "infection score, replicate 1": 2.81, "infection score, replicate 2": 3.12, "cell count, replicate 1": 6486, "cell count, replicate 2": 5742, "Call": "inactive"}
{"gene": "CG31661", "amplicon": "DRSC28732", "cell count, replicate 1": 336, "cell count, replicate 2": 399, "Call": "inactive"}
{"gene": "CG12708", "amplicon": "DRSC19490", "infection score, replicate 1": 4.76, "infection score, replicate 2": 7.12, "cell count, replicate 1": 6323, "cell count, replicate 2": 4242, "Call": "inactive"}
{"gene": "CG14237", "amplicon": "DRSC23239", "infection score, replicate 1": 3.14, "infection score, replicate 2": 4.45, "cell count, replicate 1": 7298, "cell count, replicate 2": 7120, "Call": "inactive"}
{"gene": "CG15084", "amplicon": "DRSC06515", "infection score, replicate 1": 0.68, "infection score, replicate 2": 1.07, "cell count, replicate 1": 6472, "cell count, replicate 2": 7190, "Call": "inactive"}
{"gene": "CG15084", "amplicon": "DRSC21403", "infection score, replicate 1": 2.05, "infection score, replicate 2": 10.1, "cell count, replicate 1": 5611, "cell count, replicate 2": 6221, "Call": "inactive"}
{"gene": "CG15084", "amplicon": "DRSC27128", "infection score, replicate 1": 3.88, "infection score, replicate 2": 2.45, "cell count, replicate 1": 6425, "cell count, replicate 2": 6477, "Call": "inactive"}
{"gene": "GCS1", "amplicon": "DRSC19744", "infection score, replicate 1": 5.49, "infection score, replicate 2": 1.97, "cell count, replicate 1": 5815, "cell count, replicate 2": 6386, "Call": "inactive"}
{"gene": "GCS1", "amplicon": "DRSC25625", "infection score, replicate 1": 7.11, "infection score, replicate 2": 8.43, "cell count, replicate 1": 6523, "cell count, replicate 2": 6321, "Call": "inactive"}
{"gene": "CG13561", "amplicon": "DRSC04199", "infection score, replicate 1": 18.9, "infection score, replicate 2": 8.87, "cell count, replicate 1": 6685, "cell count, replicate 2": 7005, "Call": "inactive"}
{"gene": "CG33459", "amplicon": "DRSC05615", "infection score, replicate 1": 4.38, "infection score, replicate 2": 1.54, "cell count, replicate 1": 6399, "cell count, replicate 2": 6291, "Call": "inactive"}
{"gene": "Cyp6u1", "amplicon": "DRSC05015", "infection score, replicate 1": 13.8, "infection score, replicate 2": 24.8, "cell count, replicate 1": 6803, "cell count, replicate 2": 5528, "Call": "inactive"}
{"gene": "Cyp6u1", "amplicon": "DRSC26528", "infection score, replicate 1": 2.99, "infection score, replicate 2": 3.47, "cell count, replicate 1": 5879, "cell count, replicate 2": 5816, "Call": "inactive"}
{"gene": "Oat", "amplicon": "DRSC11043", "infection score, replicate 1": 5.52, "infection score, replicate 2": 6.98, "cell count, replicate 1": 6871, "cell count, replicate 2": 6601, "Call": "inactive"}
{"gene": "trh", "amplicon": "DRSC08355", "infection score, replicate 1": 5.42, "infection score, replicate 2": 1.06, "cell count, replicate 1": 5669, "cell count, replicate 2": 6212, "Call": "inactive"}
{"gene": "trh", "amplicon": "DRSC08739", "infection score, replicate 1": 2.72, "infection score, replicate 2": 12.1, "cell count, replicate 1": 5802, "cell count, replicate 2": 5998, "Call": "inactive"}
{"gene": "trh", "amplicon": "DRSC30093", "infection score, replicate 1": 4.5, "infection score, replicate 2": 12.7, "cell count, replicate 1": 6162, "cell count, replicate 2": 5868, "Call": "inactive"}
{"gene": "Tbca", "amplicon": "DRSC15395", "infection score, replicate 1": 1.96, "infection score, replicate 2": 2.8, "cell count, replicate 1": 5601, "cell count, replicate 2": 6181, "Call": "inactive"}
{"gene": "Tbca", "amplicon": "DRSC29064", "infection score, replicate 2": 24.2, "cell count, replicate 1": 351, "cell count, replicate 2": 5630, "Call": "inactive"}
{"gene": "Golgin245", "amplicon": "DRSC04374", "infection score, replicate 1": 24.3, "infection score, replicate 2": 13.9, "cell count, replicate 1": 6352, "cell count, replicate 2": 6076, "Call": "inactive"}
{"gene": "Golgin245", "amplicon": "DRSC22012", "infection score, replicate 1": 9.47, "infection score, replicate 2": 1.28, "cell count, replicate 1": 5996, "cell count, replicate 2": 6971, "Call": "inactive"}
{"gene": "Golgin245", "amplicon": "DRSC30015", "infection score, replicate 1": 15.4, "infection score, replicate 2": 9.36, "cell count, replicate 1": 6428, "cell count, replicate 2": 6324, "Call": "inactive"}
